Data: patent US20240390311A1 (priority 2020, published 2024)

Test system: SARS-CoV-2
Assay type: in vivo, K18-hACE2 mice
Conditions: Trial 2; GABA 0, 0.2 or 2.0 mg/mL groups compared

NCCCC(=O)O [GABA, gamma-aminobutyric acid]
amounts of water consumed: no statistically significant differences | longitudinal body weights: no statistically significant differences
